Mutational interference map of HIV-1 RNA dimerization

RNA: 5' end of the HIV-1 NL4-3 genome, made in vitro. Positions 1-437 read:
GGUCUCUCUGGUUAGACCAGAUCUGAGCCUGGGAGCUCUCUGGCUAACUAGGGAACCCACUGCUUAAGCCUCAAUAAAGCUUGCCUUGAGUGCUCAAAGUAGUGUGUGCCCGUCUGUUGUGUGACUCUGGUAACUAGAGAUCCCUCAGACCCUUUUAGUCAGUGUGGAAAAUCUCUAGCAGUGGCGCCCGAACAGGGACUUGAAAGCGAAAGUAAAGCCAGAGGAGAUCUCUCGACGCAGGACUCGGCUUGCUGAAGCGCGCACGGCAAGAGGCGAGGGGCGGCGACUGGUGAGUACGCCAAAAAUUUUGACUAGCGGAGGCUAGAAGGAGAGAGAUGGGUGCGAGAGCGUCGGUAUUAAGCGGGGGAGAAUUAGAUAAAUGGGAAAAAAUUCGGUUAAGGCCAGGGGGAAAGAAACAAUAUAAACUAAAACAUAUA

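Mutant RNA libraries with 1G, 2G or 3G starts, with or without cap, were folded at 37 °C for 30 min. Monomer and dimer bands were cut from native gels after folding in high salt (300 mM KCl, 5 mM MgCl2) or low salt (40 mM KCl, 0.1 mM MgCl2). Mutation frequencies in the two bands give Kdimer.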

Scale: median log2 Kdimer over the changes at a position; positive = changes inhibit dimerization, negative = changes enhance it.
One numbering serves 1G, 2G and 3G.
A position is written with its base where known.
The source gives no letters past position 437.

position,domain,3G capped high-salt,3G capped low-salt,3G uncapped high-salt,3G uncapped low-salt
445,none,0.21,0.19,0.09,-0.14
446,none,0.19,0.14,0.16,-0.02
447,none,0.01,-0.15,-0.01,-0.32
448,none,0.07,0.22,0.10,-0.10
449,none,-0.02,0.23,0.13,-0.09
450,none,0.13,0.05,0.15,-0.18
451,none,0.16,0.09,0.17,-0.22
452,none,-0.05,0.12,-0.02,0.08
453,none,-0.05,0.15,0.02,0.19
454,none,0.01,0.05,0.14,-0.05
455,none,0.05,0.15,-0.06,0.13
456,none,-0.08,0.01,-0.02,-0.08
457,none,-0.01,0.04,0.13,0.01
458,none,0.06,0.15,0.11,0.05
459,none,0.09,0.02,0.08,0.04
460,none,0.07,0.06,-0.08,-0.01
461,none,-0.03,0.07,0.01,-0.06
462,none,-0.10,0.02,0.06,0.05
463,none,-0.10,0.07,0.04,-0.12
464,none,-0.11,0.04,0.07,0.05
465,none,-0.16,-0.07,-0.14,-0.17
466,none,0.11,0.07,0.18,-0.13
467,none,0.02,-0.05,0.08,-0.22
468,none,0.01,-0.03,0.06,-0.27
469,none,-0.01,0.03,0.13,-0.09
470,none,0.08,0.17,0.12,0.13
471,none,0.12,0.04,0.11,0.01
472,none,0.05,0.10,0.05,0.01
473,none,0.11,0.04,-0.04,0.00
474,none,-0.07,0.01,-0.03,-0.06
475,none,0.08,-0.04,0.07,0.07
476,none,-0.01,0.01,0.10,0.12
477,none,-0.08,-0.13,-0.04,0.10
478,none,-0.08,-0.19,-0.15,0.03
479,none,-0.10,-0.15,-0.11,0.06
480,none,0.17,0.06,0.12,0.03
481,none,-0.18,-0.09,-0.04,-0.26
482,none,0.02,-0.05,-0.08,0.00
483,none,0.03,-0.09,-0.15,-0.08
484,none,0.06,0.02,0.03,0.08
485,none,-0.01,0.09,0.08,0.20
486,none,0.00,0.14,0.01,0.00
487,none,0.08,0.15,-0.05,0.05
488,none,0.00,0.03,0.04,0.01

Data from the supplement of Ye et al. 2022, doi:10.1038/s41594-022-00746-2.